# Results from article PMC8437407.
# Columns and labels:
# [1] = biological target: PspA on live wild-type Spn strain WU2 (Streptococcus pneumoniae strain WU2)
# [2] = biological target: PspC (group 3 PRD containing the NPB) on live Spn strain TIGR4 (Streptococcus pneumoniae strain TIGR4)
substance,measurement,setting,value
"purified rabbit muscle LDH, consisting primarily of LDH-A (from UniProt P13491 1-332) (enzyme)",bacterial titers in the lungs of mice 24 h after intratracheal challenge with WU2 given in PBS with rabbit LDH-A against without,[1],> 10 fold
same,bacterial titers in the lungs of mice 24 h after intratracheal challenge with TIGR4 given in PBS with rabbit LDH-A against without,[2],> 10 fold
